Only a part is listed here, and it is no random draw. Activity calls are given as the source filed them. Rule as the data show it: active = inhibition above about 50% (passing the limit was not always enough); inconclusive = no clear call, values can overlap the other calls; inactive = below about 31%.
experiment: HIV Vif self-association inhibitors, primary screen, imaging, HEK293T, single point (AID 602346); conditions: HEK293T cells, Vif self-association by quenched fluorescence, 24 h, at 7.49 µM, active compounds read high

Compound | inhibition
Cc1ccc(C(=O)NCC2(N3CCCCC3)CCCCC2)o1 | inactive: -1.83%
Fc1ccccc1NC1CCN(Cc2ccccc2)CC1 | inactive: 4.43%
Cc1ccc(NC2(C#N)CCN(Cc3ccccc3)CC2)cc1 | inactive: -5.15%
CC(=O)N(c1ccccc1)C1CCNCC1 | inactive: -7.41%
O=c1[nH]c2ccccc2n1C1CCN(C(c2ccnc3ccccc23)c2nnnn2C2CCCCC2)CC1 (stereo not drawn) | inactive: 6.16%
COc1cc(OC)cc(C(=O)NCC2(N3CCCCC3)CCCCC2)c1 | inactive: 19.5%
O=C(NCC1(N2CCCCC2)CCCCC1)c1ccco1 | inactive: -3.93%
Cn1c(=O)[nH]cc(N(CCCl)CCCl)c1=O | inactive: -1.96%
CN(C)c1ccc(C(=O)NCC2(N3CCCCC3)CCCCC2)cc1 | inactive: -3.63%
Cc1ccccc1NC1(C#N)CCN(Cc2ccccc2)CC1 | inactive: 8.75%
CC(C)(C)n1nnnc1C(c1ccnc2ccccc12)N1CCC(n2c(=O)[nH]c3ccccc32)CC1 (stereo not drawn) | inactive: -1.1%
CCN1CCC(Nc2cccc(F)c2)CC1 | inactive: -6.11%
CC(C)(C)OC(=O)N1CCC(Nc2ccccc2)CC1 | inactive: 4.72%
O=C(O)C1(Nc2ccccc2)CCN(Cc2ccccc2)CC1 | inactive: 2.5%
CCCOc1ccc(C(=O)NCC2(N(C)C)CCCCC2)cc1 | inactive: -19%
O=c1[nH]c2ccccc2n1C1CCN(C(c2cc3ccccc3o2)c2nnnn2C2CCCC2)CC1 (stereo not drawn) | inactive: 5.38%
CCOc1ncccc1C(=O)NCC1(N2CCOCC2)CCCCC1 | inactive: -2.41%
CN1CCC(Nc2ccc(F)c(Cl)c2)CC1 | inactive: 0.577%
CN1CCC(Nc2ccc(Cl)cc2)CC1 | inactive: 1.75%
COc1cccc(C(c2nnnn2C2CCCC2)N2CCC(n3c(=O)[nH]c4ccccc43)CC2)c1OC (stereo not drawn) | inactive: 0.378%
COc1cc(OC)cc(C(=O)NCC2(N3CCOCC3)CCCCC2)c1 | inactive: 4.98%

Compound | inhibition
COc1cccc(C(=O)N(c2cc(C)cc(C)c2)C2CCN(C(=O)OC(C)(C)C)CC2)c1 | inactive: -3.88%
CCC(CO)(C(=O)OC1CN2CCC1CC2)c1ccccc1 (stereo not drawn) | inactive: 0.345%
COc1cc(C(=O)NCC2(N3CCOCC3)CCCCC2)cc(OC)c1C | inactive: -2.02%
O=C(NCC1(N2CCOCC2)CCCCC1)c1cc(Br)ccc1Cl | inactive: 11.5%
O=C(OC1CN2CCC1CC2)C1c2ccccc2C=Cc2ccccc21 (stereo not drawn) | inactive: -5.77%
CCOC(=O)N1CCC(Nc2ccc(C)cc2)CC1 | inactive: -4.33%
N/C(=N\O)c1c(N)no[n+]1[O-] | inactive: -0.351%
N#Cc1ccc(C(=O)NCC2(N3CCCCC3)CCCCC2)cc1 | inactive: -1.34%
CC(C)(C)OC(=O)N1CCC(N(C(=O)c2ccccc2)c2ccc(Cl)cc2)CC1 | inactive: 3.02%
CC(C)(C)n1nnnc1C(c1cccc2ccccc12)N1CCC(n2c(=O)[nH]c3ccccc32)CC1 (stereo not drawn) | inactive: -5.45%
CN(C)C1(CNC(=O)c2cccc(C#N)c2)CCCCC1 | inactive: -0.282%
c1ccc(CN2CCC(Nc3ccccc3)CC2)cc1 | inactive: 5.21%
Cc1cc(N(CCCl)CCCl)ccc1C=O | inactive: 8.02%
CCCN1CCC(Nc2cc(OC)cc(OC)c2)CC1 | inactive: 8.71%
O=c1[nH]c2ccccc2n1C1CCN(C(c2ccccc2)c2nnnn2C2CCCC2)CC1 (stereo not drawn) | inactive: -7.34%
CCN1CCC(Nc2ccc(Cl)cc2)CC1 | inactive: -1.47%
N#CC1(Nc2ccccc2)CCN(CCc2ccccc2)CC1 | inactive: 6%
CSc1ccc(C(=O)NCC2(N3CCOCC3)CCCCC2)cc1 | inactive: -1.15%
O=C(NCC1(N2CCCCC2)CCCCC1)c1cccc([N+](=O)[O-])c1 | inactive: -3.71%
CC(C)(C)n1nnnc1C(c1ccccc1OC(F)(F)F)N1CCC(n2c(=O)[nH]c3ccccc32)CC1 (stereo not drawn) | inactive: 11.2%
O=C(NCC1(N2CCCCC2)CCCCC1)c1ccc(OC(F)F)cc1 | inactive: 6.8%

Compound | inhibition
COc1cc(C(=O)NCC2(N3CCCCC3)CCCCC2)ccc1OC(F)F | inactive: -13.5%
O=C(NCC1(N2CCOCC2)CCCCC1)c1cc(=O)[nH]c2ccccc12 | inactive: 1.33%
CCCCn1nnnc1C(c1cccc2ccccc12)N1CCC(n2c(=O)[nH]c3ccccc32)CC1 (stereo not drawn) | inactive: 1.16%
CN1CCN(CCOC(=O)C(O)(c2ccccc2)c2ccccc2)CC1 | inactive: 4.09%
COc1ccc(NC2CCN(C(=O)OC(C)(C)C)CC2)cc1 | inactive: -0.264%
O=C(NCC1(N2CCCCC2)CCCCC1)c1cccc(C(F)(F)F)c1 | inactive: -6.38%
COc1cc(OC)c(C(=O)NCC2(N(C)C)CCCCC2)cc1OC | inactive: -1.36%
O=C(NCC1(N2CCOCC2)CCCCC1)c1cc(F)c(F)cc1Cl | inactive: -1.39%
CC(C)c1ccc(NC2CCN(C(=O)OC(C)(C)C)CC2)cc1 | inactive: -4.27%
CCCCn1nnnc1C(c1ccccc1OC(F)(F)F)N1CCC(n2c(=O)[nH]c3ccccc32)CC1 (stereo not drawn) | inactive: 6.24%
COc1ccc(CN(CCCl)CCCl)cc1Cl | inactive: -5%
CN(C)c1cccc(C(=O)NCC2(N3CCCCC3)CCCCC2)c1 | inactive: 0.507%
Cc1ccc(C(=O)NCC2(N(C)C)CCCCC2)o1 | inactive: 9.46%
CCCOc1ccc(C(=O)NCC2(N(C)C)CCCCC2)cc1OC | inactive: -8.99%
O=C(NCC1(N2CCCCC2)CCCCC1)c1cncc(Br)c1 | inactive: 2.02%
CN1CCC(Nc2cccc(F)c2)CC1 | inactive: -0.765%
CSc1ccccc1C(=O)NCC1(N2CCCCC2)CCCCC1 | inactive: 1.69%
Cc1cccc(NC2(C#N)CCN(Cc3ccccc3)CC2)c1 | inactive: -1.74%
COc1ccc(C(=O)NCC2(N3CCCCC3)CCCCC2)cc1 | inactive: 0.0295%
CC(C)(C)OC(=O)N1CCC(N(C(=O)c2ccccc2)c2ccc(F)cc2)CC1 | inactive: -5.06%
COc1ccc(C(=O)NCC2(N3CCCCC3)CCCCC2)c(OC)c1OC | inactive: -14.1%

Source: PubChem BioAssay AID602346 (Broad Institute, 2012)
